Assay results from article PMC4785407, “Reduction Impairs the Antibacterial Activity but Benefits the LPS Neutralization Ability of Human Enteric Defensin 5” (Scientific Reports, 2016).

Test: HD5 forms in human luminal fluid (AU-PAGE immunoblotting, MALDI-TOF)
Conditions: LF of terminal ileum, healthy donors, IAM-alkylated

SMILES: CC[C@H](C)[C@H](NC(=O)[C@H](CCC(=O)O)NC(=O)[C@H](CS)NC(=O)[C@@H](NC(=O)CNC(=O)[C@H](CO)NC(=O)[C@H](CC(C)C)NC(=O)[C@H](CO)NC(=O)[C@H](CCC(=O)O)NC(=O)[C@H](CCCNC(=N)N)NC(=O)[C@@H](NC(=O)[C@H](C)NC(=O)[C@H](CS)NC(=O)[C@H](CCCNC(=N)N)NC(=O)CNC(=O)[C@@H](NC(=O)[C@H](CCCNC(=N)N)NC(=O)[C@H](CS)NC(=O)[C@H](Cc1ccc(O)cc1)NC(=O)[C@H](CS)NC(=O)[C@@H](NC(=O)[C@H](C)N)[C@@H](C)O)[C@@H](C)O)[C@@H](C)O)C(C)C)C(=O)N[C@@H](CO)C(=O)NCC(=O)N[C@@H](CCCNC(=N)N)C(=O)N[C@@H](CC(C)C)C(=O)N[C@@H](Cc1ccc(O)cc1)C(=O)N[C@@H](CCCNC(=N)N)C(=O)N[C@@H](CC(C)C)C(=O)N[C@@H](CS)C(=O)N[C@@H](CS)C(=O)N[C@@H](CCCNC(=N)N)C(=O)O [HD5RED] (H-ATCYCRTGRCATRESLSGVCEISGRLYRLCCR-OH)
- existence in human luminal fluid: mature HD5 existed as HD5OX and HD5RED in LF

Peptide text beside a SMILES is read from it.
